Results of unrelated studies side by side (data: NIAID ChemDB).

All rows: whole-cell or culture tests; organism: Candida albicans

Rows are shuffled and stem from different studies. ECn is the concentration giving n% inhibition of infection, replication or growth. Blank or dashed fields: not listed here. MIC50, MIC90 and the like: level of inhibition, or share of isolates inhibited.

structure,read-out,strain or isolate,read by,value
C=C(CF)CN1C[C@H](OC[C@@]23C[C@@H]4[C@H](C)CC[C@H]4[C@@]4(C=O)C[C@@H]2CC(C(C)C)[C@@]34C(=O)O)O[C@H](C)C1,MIC,CL-245 (fluconazole-resistant),-,≤0.001 µg/mL
O=c1c2ccc(O)cc2oc2cccc(O)c12,MIC,-,-,>25 µg/mL
OC(CN1CCN(c2ccc(OCc3ccncc3)cc2)CC1)(Cn1cncn1)c1ccc(F)cc1F,MIC80,1,-,≤0.031 µg/mL
CC(C)=CCc1c(O)cc(O)c2oc3cc(O)cc(O)c3c(=O)c12,MIC,-,-,>25 µg/mL
O=C(Nc1ccc(-c2nc3ccccc3[nH]2)cc1)c1cccc(Cl)c1,MIC,ATCC 10231,-,25 µg/mL
CN1CCN(c2nc3ccc4oc(=O)ccc4c3s2)CC1,MIC100,MTCC 183,-,250 µg/mL
COc1c(O)ccc2c(=O)c3cccc(O)c3oc12,MIC,-,-,>25 µg/mL
O=C(Nc1ccc(-c2nc3ccccc3[nH]2)cc1)c1cc([N+](=O)[O-])ccc1F,MIC,ATCC 10231,-,25 µg/mL
CCCCc1ncc(C(N)=S)nc1SCCC,MIC,ATCC 44859,-,>31.25 µg/mL
CC(=O)c1c(O)cc(O)c(C=O)c1O,EC50,-,-,>20 µg/mL
O=c1[nH]cc(F)c(=O)[nH]1,MIC,BC759,-,1 µg/mL
COc1ccc(C(Cc2cccc(Cl)c2)n2ccnc2)cc1,Geometric mean MIC,34 strains,-,137.3 µg/mL
CCCc1ncc(C(N)=O)nc1Sc1ccccc1,MIC,ATCC 44859,-,>31.25 µg/mL
O=C(Nc1ccc(-c2nc3ccccc3[nH]2)cc1)c1ccccc1Cl,MIC,ATCC 10231,-,25 µg/mL
CO[C@H]1[C@@H](O)[C@H](O)[C@H](OC[C@@]23C[C@@H]4[C@H](C)CC[C@H]4[C@@]4(C=O)C[C@@H]2C=C(C(C)C)[C@@]34C(=O)O)O[C@@H]1C,MIC,2005E,-,8 µg/mL
Cc1ccc(N=Nc2ccc(O)c(C[N+](C)(C)COC3CCCCCCC3)c2)cc1,MIC,-,-,36 µM
O=c1c2cccc(O)c2oc2cccc(O)c12,MIC,-,-,>25 µg/mL
COc1ccc(C(Cc2cccc(N)c2)n2ccnc2)cc1,Geometric mean MIC,34 strains,-,>256 µg/mL
CCSc1nc(C(N)=O)cnc1C(C)(C)C,MIC,ATCC 44859,-,>31.25 µg/mL
Nc1[nH]c(=O)ncc1F,MIC,9760-H85,-,1.56 µg/mL
Nc1ccc(-c2nc3ccccc3[nH]2)cc1,MIC,ATCC 10231,-,25 µg/mL
CCCCSc1nc(C(N)=S)cnc1C(C)(C)C,MIC,ATCC 44859,-,>31.25 µg/mL
CC(=O)N1CCN(c2nc3ccc4oc(=O)ccc4c3s2)CC1,MIC100,MTCC 183,-,62.5 µg/mL
COc1cc(O)c2c(=O)c3ccc(O)c(OC)c3oc2c1,MIC,-,-,>25 µg/mL
C[N+](C)(COC1CCCCC1)Cc1cc(N=Nc2ccc(Cl)cc2)ccc1O,MBC,-,-,142 µM
C=C[C@@]1(C)C=C2CC[C@@H]3[C@](C)(CCC[C@@]3(C)C(=O)O)[C@H]2CC1,MIC,-,-,>100 µg/mL
CC(C)CCc1c(O)c(C=O)c(O)c(C=O)c1O,EC50,-,-,>20 µg/mL
CC(C)N1CCN(c2nc3ccc4c(ccc(=O)n4C)c3s2)CC1,MIC100,MTCC 183,-,62.5 µg/mL
CCCOC[N+](C)(C)Cc1cc(N=Nc2ccc(C)cc2)ccc1O,MBC,-,-,662 µM
Cn1c(=O)ccc2c3sc(N4CCN(c5ccccc5Cl)CC4)nc3ccc21,MIC100,MTCC 183,-,250 µg/mL
COc1ccc(C(Cc2ccccc2-n2cccc2)n2ccnc2)cc1,MIC90,34 strains,-,32 µg/mL
C=CCN1C[C@H](OC[C@@]23C[C@@H]4[C@H](C)CC[C@H]4[C@@]4(C=O)C[C@@H]2CC(C(C)C)[C@@]34C(=O)O)O[C@H](C)C1,MIC,4711E,-,0.004 µg/mL
CC(C)=CCc1ccc(O)c2oc3cc(O)cc(O)c3c(=O)c12,MIC,-,-,>25 µg/mL
COC(=O)C1C(c2cc3cc(C)ccc3nc2Cl)C2=C(CCCC2=O)N(c2cccnc2)C1N,MIC99,MTCC 227,broth dilution,500 µg/mL
CC(C)Cc1ncc(C(N)=S)nc1Sc1ccccc1,MIC,ATCC 44859,-,>31.25 µg/mL
COc1ccc(C(Cc2ccccc2N)n2ccnc2)cc1,MIC50,34 strains,-,64 µg/mL
COc1ccc(CN2CCN(c3nc4ccc5oc(=O)ccc5c4s3)CC2)c(OC)c1OC,MIC100,MTCC 183,-,25 µg/mL
COc1ccc(C(Cc2c(Cl)cccc2Cl)n2ccnc2)cc1,MIC90,34 strains,-,64 µg/mL
O=C(Nc1ccc(-c2nc3ccccc3[nH]2)cc1)c1ccc(Cl)cc1Cl,MIC,ATCC 10231,-,25 µg/mL
O=C(O)c1ccc(O)c(O)c1,MIC,-,-,>25 µg/mL
CCC(=O)c1c(O)cc(O)c(C=O)c1O,EC50,-,-,>20 µg/mL
COc1ccc(C(Cc2cccc([N+](=O)[O-])c2)n2ccnc2)cc1,Geometric mean MIC,34 strains,-,>256 µg/mL
CCCCc1ncc(C(N)=O)nc1SC,MIC,ATCC 44859,-,>31.25 µg/mL
C=C1C[C@@]23CC[C@H]4[C@@](C)(CCC[C@@]4(C)C(=O)O)[C@@H]2CC[C@@H]1C3,MIC,-,-,>100 µg/mL
CCSc1nc(C(N)=O)cnc1CC(C)C,MIC,ATCC 44859,-,>31.25 µg/mL
COC(=O)C1C(c2cc3cc(OC)ccc3nc2Cl)C2=C(CCCC2=O)N(c2cccnc2)C1N,MIC99,MTCC 227,broth dilution,500 µg/mL
Clc1ccc(COC(Cn2ccnc2)c2ccc(Cl)cc2Cl)c(Cl)c1,MIC50,15 isolates,-,3 µg/mL
COC(=O)C1C(c2cc3ccccc3nc2Cl)C2=C(CCCC2=O)N(c2cccnc2)C1N,MIC99,MTCC 227,broth dilution,250 µg/mL
COc1ccc(C(Cc2ccc(Cl)cc2)n2ccnc2)cc1,Geometric mean MIC,34 strains,-,14.62 µg/mL
COC(=O)C1C(c2cc3cc(Cl)ccc3nc2Cl)C2=C(CCCC2=O)N(c2cccnc2)C1N,MIC99,MTCC 227,broth dilution,1000 µg/mL
C=C=CCN1C[C@H](OC[C@@]23C[C@@H]4[C@H](C)CC[C@H]4[C@@]4(C=O)C[C@@H]2CC(C(C)C)[C@@]34C(=O)O)O[C@H](C)C1,MIC,4711E,-,≤0.001 µg/mL
Cc1ccc(C(=O)Nc2ccc(-c3nc4ccccc4[nH]3)cc2)cc1,MIC,ATCC 10231,-,25 µg/mL
CCCSc1nc(C(N)=S)cnc1CC(C)C,MIC,ATCC 44859,-,>31.25 µg/mL
COc1ccc(CN2CCN(c3nc4ccc5c(ccc(=O)n5C)c4s3)CC2)c(OC)c1OC,MIC100,MTCC 183,-,25 µg/mL
N=C(N)c1ccc2nc(-c3ccc(-c4nc5ccc(C(=N)N)cc5[nH]4)[nH]3)[nH]c2c1,MFC,Isolate 3028 fluconazole-resistant,-,0.78 µg/mL
CCC(C)n1ncn(-c2ccc(N3CCN(c4ccc(OC[C@H]5CO[C@](Cn6cncn6)(c6ccc(Cl)cc6Cl)O5)cc4)CC3)cc2)c1=O,MIC50,58 strains,-,0.06 µg/mL
Cn1c(=O)ccc2c3sc(N4CCN(c5ccc(F)cc5)CC4)nc3ccc21,MIC100,MTCC 183,-,50 µg/mL

A second listing of 6 rows from above:

| structure | read-out | strain or isolate | read by | value |
|---|---|---|---|---|
| COc1ccc(CN2CCN(c3nc4ccc5c(ccc(=O)n5C)c4s3)CC2)c(OC)c1OC | MIC100 | MTCC 183 | - | 25 µg/mL |
| CCC(=O)c1c(O)cc(O)c(C=O)c1O | EC50 | - | - | >20 µg/mL |
| COC(=O)C1C(c2cc3cc(OC)ccc3nc2Cl)C2=C(CCCC2=O)N(c2cccnc2)C1N | MIC99 | MTCC 227 | broth dilution | 500 µg/mL |
| Nc1[nH]c(=O)ncc1F | MIC | 9760-H85 | - | 1.56 µg/mL |
| Cc1ccc(C(=O)Nc2ccc(-c3nc4ccccc4[nH]3)cc2)cc1 | MIC | ATCC 10231 | - | 25 µg/mL |
| CCCc1ncc(C(N)=O)nc1Sc1ccccc1 | MIC | ATCC 44859 | - | >31.25 µg/mL |